Measured values from several laboratories, pooled; numbers as filed in NIAID ChemDB.

All rows: whole-cell or culture tests

Rows are shuffled and stem from different studies. A number after MIC or MFC names an inhibition level or a share of isolates. Blank or dashed fields: not listed here. Zone: diameter of growth inhibition. ECn: concentration that inhibits the pathogen or its effect by n%.

compound	strain	dose	read-out	species	conditions	method	value
OCC#CCO	1173P2	-	MIC	Mycobacterium bovis BCG	48 h	resazurin	125 µg/mL
CN[C@@H]1[C@@H](O[C@H]2O[C@H](CO)[C@@H](N)[C@H](O)[C@H]2O)OC2C[C@@H](N)[C@@H](O[C@H]3[C@H](OC4OC[C@@H](O)[C@H]4O)[C@@H](O)[C@H](N)C[C@@H]3N)OC2[C@@H]1O	L948	-	MIC	Mycobacterium abscessus	-	broth dilution	4 µg/mL
O=C(O)c1cn(C2CC2)c2c(F)c(N3CCNCC3)c(F)cc2c1=O	KD2008 (GYRA G89C)	-	MIC99	Mycobacterium smegmatis	-	-	0.94 µg/mL
COc1ccc(C2CC(c3ccc4c(c3)OCO4)=Nc3c(N)nc(SC)nc3N2)cc1	MNT1193	-	MIC	Mycobacterium scrofulaceum	clinical isolate	MTT / broth dilution / absorbance	>32 µg/mL
CN1CC2=C(C(=O)c3ccccc3C2=O)C12C(=O)c1ccccc1C2=O	-	50 µg/mL	zone	Mycobacterium luteus	-	agar diffusion	8 mm
NC[C@H]1O[C@H](O[C@H]2[C@H](O)[C@@H](O[C@H]3O[C@H](CO)[C@@H](O)[C@H](N)[C@H]3O)[C@H](N)C[C@@H]2N)[C@H](O)[C@@H](O)[C@@H]1O	K-10(PYUB180)	-	MIC	Mycobacterium avium paratuberculosis	-	-	≥128 µg/mL
CN[C@@H]1[C@@H](O[C@H]2O[C@H](CO)[C@@H](N)[C@H](O)[C@H]2O)OC2C[C@@H](N)[C@@H](O[C@H]3[C@H](OC4O[C@H](CO)[C@@H](OCCN)[C@H]4O)[C@@H](O)[C@H](N)C[C@@H]3N)OC2[C@@H]1O	L948	-	MIC	Mycobacterium abscessus	-	broth dilution	8 µg/mL
Cc1ccc2c(c1)C1(C(=O)N2C)C2=C(CN1C)C(=O)c1ccccc1C2=O	-	-	MIC	Mycobacterium luteus	-	agar diffusion	125 µg/mL
O=C(Nc1ccc(C(F)(F)F)cc1)c1cc(Cl)ccc1OP(=O)(OCc1ccccc1)OCc1ccccc1	My 6509/96	-	MIC	Mycobacterium kansasii	14 d	-	16 µM
CN(C)[C@@H]1C(=O)C(C(N)=O)=C(O)[C@@]2(O)C(=O)C3=C(O)c4c(O)cccc4[C@@](C)(O)[C@H]3C[C@@H]12	37 clinical isolates	-	MIC90	Mycobacterium marinum	-	-	2 µg/mL
O=C(Nc1ccc(Br)cc1)c1cc(Cl)ccc1OP(=O)(c1ccccc1)c1ccccc1	My 235/80	-	MIC	Mycobacterium kansasii	14 d	-	8 µM
Nc1nc(N)c2c(n1)NC(c1ccc3c(c1)OCO3)CC(c1ccccc1)=N2	MNT1407	-	MIC	Mycobacterium chelonae	clinical isolate	MTT / broth dilution / absorbance	>32 µg/mL
CCCCCCCNC(=O)Nc1ccc(S(=O)(=O)Nc2cc(C)on2)cc1	6509/96 clinical isolate	-	MIC100	Mycobacterium kansasii	7 d	broth dilution / absorbance	4 µM
COc1c(N2CCNC(C)C2)c(F)cc2c(=O)c(C(=O)O)cn(C3CC3)c12	37 clinical isolates	-	MIC90	Mycobacterium marinum	-	-	0.38 µg/mL
CO[C@H]1/C=C/O[C@@]2(C)Oc3c(C)c(O)c4c(O)c(c5c(c4c3C2=O)NC2(CCN(CC(C)C)CC2)N=5)=NC(=O)/C(C)=C\C=C\[C@H](C)[C@H](O)[C@@H](C)[C@@H](O)[C@@H](C)[C@H](OC(C)=O)[C@@H]1C	9141	-	MBC	Mycobacterium avium complex	-	-	16 µg/mL
COc1c(N2CCNCC2)c(F)cc2c(=O)c(C(=O)O)cn(C3CC3)c12	KD1998 (GYRA D95N)	-	MIC99	Mycobacterium smegmatis	-	-	0.81 µg/mL
CC#CCCC	1173P2	-	MIC	Mycobacterium bovis BCG	24 h	resazurin	3.87 µg/mL
COc1c(N2CCN(C(C)C)CC2)c(F)cc2c(=O)c(C(=O)O)cn(C3CC3)c12	KD1995 (GYRA D95H)	-	MIC99	Mycobacterium smegmatis	-	-	2.3 µg/mL
CO[C@H]1/C=C/O[C@@]2(C)Oc3c(C)c(O)c4c(O)c(c5c(c4c3C2=O)NC2(CCN(CC(C)C)CC2)N=5)=NC(=O)/C(C)=C\C=C\[C@H](C)[C@H](O)[C@@H](C)[C@@H](O)[C@@H](C)[C@H](OC(C)=O)[C@@H]1C	ATCC 25291	-	Median MIC	Mycobacterium avium	-	-	0.56 µg/mL
CC[C@H]1OC(=O)[C@H](C)[C@@H](O[C@H]2C[C@@](C)(OC)[C@@H](O)[C@H](C)O2)[C@H](C)[C@@H](O[C@@H]2O[C@H](C)C[C@H](N(C)C)[C@H]2O)[C@](C)(OC)C[C@@H](C)C(=O)[C@H](C)[C@@H](O)[C@]1(C)O	X72	-	MIC	Mycobacterium abscessus	-	broth dilution	16 µg/mL
Cc1nn(-c2ccccc2)c2c1C(c1cn(-c3ccccc3)nc1-c1ccc(F)cc1)C1=C(NC(C)(c3cc(O)c(Cl)c(O)c3)NC1=O)O2	NCIM 2240	-	MIC	Mycobacterium phlei	-	agar diffusion / agar	50 µg/mL
Nc1nc(N)c2c(n1)NC(c1ccc(C(F)(F)F)cc1)CC(c1ccc3c(c1)OCO3)=N2	MNT1193	-	MIC	Mycobacterium scrofulaceum	clinical isolate	MTT / broth dilution / absorbance	32 µg/mL
CCC1CN(c2cc3c(cc2F)c(=O)c(C(=O)O)cn3C2CC2)CCN1	KD1990 (GYRA D95A)	-	MIC99	Mycobacterium smegmatis	-	-	2.6 µg/mL
Nc1nc(N)c2c(n1)NC(c1ccccc1)CC(c1ccc3c(c1)OCO3)=N2	MNT1193	-	MIC	Mycobacterium scrofulaceum	clinical isolate	MTT / broth dilution / absorbance	32 µg/mL
NCC[C@H](O)C(=O)N[C@@H]1C[C@H](N)[C@@H](O[C@H]2O[C@H](CN)[C@@H](O)[C@H](O)[C@H]2O)[C@H](O)[C@H]1O[C@H]1O[C@H](CO)[C@@H](O)[C@H](N)[C@H]1O	37 clinical isolates	-	MIC90	Mycobacterium marinum	-	-	3 µg/mL
CCCCCCNC(=O)Nc1ccc(S(=O)(=O)Nc2cc(C)on2)cc1	235/80	-	MIC100	Mycobacterium kansasii	21 d	broth dilution / absorbance	500 µM
COc1c(N2CC(C)NC(C)C2)c(F)cc2c(=O)c(C(=O)O)cn(C3CC3)c12	KD1987 (GYRA A91V)	-	MIC99	Mycobacterium smegmatis	-	-	0.41 µg/mL
CN1CC2=C(C(=O)c3ccccc3C2=O)C12C(=O)Nc1ccc(Br)cc12	-	-	MIC	Mycobacterium luteus	-	agar diffusion	62.5 µg/mL
COc1ccc(-c2nn(-c3ccccc3)cc2C2C3=C(NC(C)(c4cc(O)c(I)cc4Cl)NC3=O)Oc3c2c(C)nn3-c2ccccc2)cc1	NCIM 2240	0.1 mg/mL	zone	Mycobacterium phlei	-	agar diffusion / agar	4 mm
CN1CC2=C(C(=O)c3ccccc3C2=O)C12C(=O)Nc1ccccc12	-	-	MIC	Mycobacterium luteus	-	agar diffusion	125 µg/mL
CCCCCCCCCCNC(=O)Nc1ccc(S(=O)(=O)Nc2cc(C)on2)cc1	6509/96 clinical isolate	-	MIC100	Mycobacterium kansasii	7 d	broth dilution / absorbance	125 µM
COc1cc(Cc2cnc(N)nc2N)cc(OC)c1OC	Isolate 8756	-	MBC	Mycobacterium ulcerans	-	-	>32 µg/mL
O=C(Nc1ccc(C(F)(F)F)cc1)c1cc(Cl)ccc1OP(=O)(c1ccccc1)c1ccccc1	My 6509/96	-	MIC	Mycobacterium kansasii	21 d	-	4 µM
O=C(O)c1cc(C(F)(F)F)cc2c(=O)nc(N3CCN(CC4CCCCC4)CC3)sc12	1999-0888	-	MIC99	Mycobacterium bolletii	-	resazurin	>100 µg/mL
O=C1c2ccccc2OP(=O)(c2ccccc2)N1c1ccccc1	My 235/80	-	MIC	Mycobacterium kansasii	7 d	-	500 µM
COc1ccc(-c2nn(-c3ccccc3)cc2C2C3=C(NC(C)(c4cc(O)ccc4Cl)NC3=O)Oc3c2c(C)nn3-c2ccccc2)cc1	NCIM 2240	1 mg/mL	zone	Mycobacterium phlei	-	agar diffusion / agar	2 mm
CCOC(=O)C#Cc1ccccc1	1173P2	-	MIC	Mycobacterium bovis BCG	48 h	resazurin	7.75 µg/mL
CC[C@@H](CO)NCCN[C@@H](CC)CO	K-10(PYUB180)	-	MIC	Mycobacterium avium paratuberculosis	-	-	20 µg/mL
CO[C@H]1/C=C/O[C@@]2(C)Oc3c(C)c(O)c4c(O)c(c(/C=N/N5CCN(C6CCCC6)CC5)c(O)c4c3C2=O)NC(=O)/C(C)=C\C=C\[C@H](C)[C@H](O)[C@@H](C)[C@@H](O)[C@@H](C)[C@H](OC(C)=O)[C@@H]1C	ATCC 25291	-	Median MIC	Mycobacterium avium	-	-	>1 µg/mL
C#CCN1C(=O)C2(C3=C(CN2C)C(=O)c2ccccc2C3=O)c2ccccc21	-	-	MIC	Mycobacterium luteus	-	agar diffusion	125 µg/mL
CCOc1cc(Cc2cnc(N)nc2N)cc(OCC)c1-n1cccc1	Isolate 842	-	MIC	Mycobacterium ulcerans	-	-	0.5 µg/mL
CO[C@H]1/C=C/O[C@@]2(C)Oc3c(C)c(O)c4c(O)c(c(/C=N/N5CCN(C)CC5)c(O)c4c3C2=O)NC(=O)/C(C)=C\C=C\[C@H](C)[C@H](O)[C@@H](C)[C@@H](O)[C@@H](C)[C@H](OC(C)=O)[C@@H]1C	ATCC 25291	-	Median MIC	Mycobacterium avium	-	-	10 µg/mL
Cc1nn(-c2ccccc2)c2c1C(c1cn(-c3ccccc3)nc1-c1ccc(Cl)cc1)C1=C(NC(C)(c3cc(O)ccc3Cl)NC1=O)O2	NCIM 2240	0.5 mg/mL	zone	Mycobacterium phlei	-	agar diffusion / agar	2.4 mm
O=C1c2cc(Cl)ccc2OP(=O)(c2ccccc2)N1c1ccc(Cl)cc1	My 6509/96	-	MIC	Mycobacterium kansasii	14 d	-	16 µM
CN[C@@H]1[C@@H](O[C@H]2O[C@H](CO)[C@@H](N)[C@H](O)[C@H]2O)OC2C[C@@H](N)[C@@H](O[C@H]3[C@H](O[C@@H]4O[C@H](CNCCN)[C@@H](O)[C@H]4O)[C@@H](O)[C@H](N)C[C@@H]3N)OC2[C@@H]1O	L948	-	MIC	Mycobacterium abscessus	-	broth dilution	2 µg/mL
Cc1cc(NS(=O)(=O)c2ccc(NC(=O)N(C(C)C)C(C)C)cc2)no1	235/80	-	MIC100	Mycobacterium kansasii	7 d	broth dilution / absorbance	250 µM
Nc1nc(N)c2c(n1)NC(c1ccc(F)cc1)CC(c1ccc3c(c1)OCO3)=N2	MNT1193	-	MIC	Mycobacterium scrofulaceum	clinical isolate	MTT / broth dilution / absorbance	32 µg/mL
O=C1c2cc(Br)ccc2OP(=O)(c2ccccc2)N1c1ccc(C(F)(F)F)cc1	My 6509/96	-	MIC	Mycobacterium kansasii	21 d	-	8 µM
N[C@@H]1CONC1=O	K-10(PYUB180)	-	MIC	Mycobacterium avium paratuberculosis	-	-	25 µg/mL
O=C(Nc1ccc(C(F)(F)F)cc1)c1cc(Br)ccc1OP(=O)(OCc1ccccc1)OCc1ccccc1	My 235/80	-	MIC	Mycobacterium kansasii	21 d	-	16 µM
C[C@@H]1CN(c2c(F)c(N)c3c(=O)c(C(=O)O)cn(C4CC4)c3c2F)C[C@H](C)N1	ATCC 25291	-	Median MIC	Mycobacterium avium	-	-	8 µg/mL
CN[C@@H]1[C@@H](O[C@H]2O[C@H](CO)[C@@H](N)[C@H](O)[C@H]2O)OC2C[C@@H](N)[C@@H](O[C@H]3[C@@H](F)[C@@H](O)[C@H](N)C[C@@H]3N)OC2[C@@H]1O	L948	-	MIC	Mycobacterium abscessus	-	broth dilution	1 µg/mL
CCn1cc(C(=O)O)c(=O)c2cc(F)c(-n3cccc3)cc21	-	-	EC50	Mycobacterium avium	pH 6.8	-	>3 µg/mL
Cc1cc(NS(=O)(=O)c2ccc(NC(=O)Nc3ccc(S(=O)(=O)Nc4cc(C)on4)cc3)cc2)no1	235/80	-	MIC100	Mycobacterium kansasii	7 d	broth dilution / absorbance	2 µM
CCC1CN(c2c(F)cc3c(=O)c(C(=O)O)cn(C4CC4)c3c2F)CCN1	KD2008 (GYRA G89C)	-	MIC99	Mycobacterium smegmatis	-	-	0.73 µg/mL
O=C(O)c1cn(C2CC2)c2c(Cl)c(N3C[C@@H]4CCCN[C@@H]4C3)c(F)cc2c1=O	K-10(PYUB180)	-	MIC	Mycobacterium avium paratuberculosis	-	-	0.008 µg/mL
C[C@H]1COC2(CCN(C3=NC(=O)c4cc(C(F)(F)F)cc([N+](=O)[O-])c4S3(=O)=O)CC2)O1	-	-	MIC	Mycobacterium marinum	-	-	0.037 µg/mL
C#CCCCCCC	1173P2	-	MIC	Mycobacterium bovis BCG	24 h	resazurin	125 µg/mL
CO[C@H]1/C=C/O[C@@]2(C)Oc3c(C)c(O)c4c(O)c(c5c(c4c3C2=O)NC2(CCN(CC(C)C)CC2)N=5)=NC(=O)/C(C)=C\C=C\[C@H](C)[C@H](O)[C@@H](C)[C@@H](O)[C@@H](C)[C@H](OC(C)=O)[C@@H]1C	211-5	-	MBC	Mycobacterium avium	-	-	16 µg/mL
CN[C@@H]1[C@@H](O[C@H]2O[C@H](CO)[C@@H](N)[C@H](O)[C@H]2O)OC2C[C@@H](N)[C@@H](O[C@H]3[C@H](OCCCO)[C@@H](O)[C@H](N)C[C@@H]3N)OC2[C@@H]1O	L948	-	MIC	Mycobacterium abscessus	-	broth dilution	8 µg/mL
C[C@H]1COC2(CCN(c3nc(=O)c4cc(C(F)(F)F)cc(C(=O)O)c4s3)CC2)O1	ATCC 15483	-	MIC99	Mycobacterium vaccae	-	resazurin	>100 µg/mL
CN(C)c1cc(NC(=O)CNC(C)(C)C)c(O)c2c1C[C@H]1C[C@H]3[C@H](N(C)C)C(=O)C(C(N)=O)=C(O)[C@@]3(O)C(=O)C1=C2O	X73	-	MIC	Mycobacterium massiliense	-	broth dilution	2 µg/mL
Nc1nc(N)c2c(n1)NC(c1ccc(Cl)cc1)CC(c1ccc3c(c1)OCO3)=N2	MNT1100	-	MIC	Mycobacterium szulgai	clinical isolate	MTT / broth dilution / absorbance	32 µg/mL
CN[C@@H]1[C@@H](O[C@H]2O[C@H](CO)[C@@H](N)[C@H](O)[C@H]2O)OC2C[C@@H](N)[C@@H](O[C@H]3[C@H](OC4O[C@H](CNC=O)[C@@H](OCCN)[C@H]4O)[C@@H](O)[C@H](N)C[C@@H]3N)OC2[C@@H]1O	L948	-	MIC	Mycobacterium abscessus	-	broth dilution	8 µg/mL
CC[C@@H](CO)NCCN[C@@H](CC)CO	1173P2	-	MIC	Mycobacterium bovis BCG	24 h	resazurin	0.75 µg/mL